For at least one entry, the source does not settle the construct or the ends of the probe.
Test system: His-FimR (Streptococcus parasanguinis FW213)
Assay: EMSA
Conditions: 0.1 mM Mn2+, 5 mM Mg2+, two complexes evident at 40 uM His-FimR, slower one clear at 80 uM; 10 mM Tris pH 7.5, 50 mM KCl, 5 mM MgCl2, 0.1 mM MnCl2, 1 mM DTT, 5% glycerol, 250 ug/ml BSA, 50 ug/ml poly(dI-dC), 40 fmol probe in 20 ul, room temperature 20 min; recombinant protein; label: 3' biotin

TATTTTATAAATTAACTTGACTTAATTTTTTTATTTATGTATATTAATAGTAA (double strand) [pfim probe (pfimbox/S + pfimbox/AS)]
binding result: binds
